This note sets out measurements from patent publication US11028072B2, “2,4-diamino-6-ethylpyrimidine derivatives with antimalarial activities against Plasmodium falciparum” (National Science and Technology Development Agency, priority 2015, dated 2021).

Protein sequences, listed by entry. Tags and fused reporters are not part of them.
UniProt P13922, whole entry N51I/I164L: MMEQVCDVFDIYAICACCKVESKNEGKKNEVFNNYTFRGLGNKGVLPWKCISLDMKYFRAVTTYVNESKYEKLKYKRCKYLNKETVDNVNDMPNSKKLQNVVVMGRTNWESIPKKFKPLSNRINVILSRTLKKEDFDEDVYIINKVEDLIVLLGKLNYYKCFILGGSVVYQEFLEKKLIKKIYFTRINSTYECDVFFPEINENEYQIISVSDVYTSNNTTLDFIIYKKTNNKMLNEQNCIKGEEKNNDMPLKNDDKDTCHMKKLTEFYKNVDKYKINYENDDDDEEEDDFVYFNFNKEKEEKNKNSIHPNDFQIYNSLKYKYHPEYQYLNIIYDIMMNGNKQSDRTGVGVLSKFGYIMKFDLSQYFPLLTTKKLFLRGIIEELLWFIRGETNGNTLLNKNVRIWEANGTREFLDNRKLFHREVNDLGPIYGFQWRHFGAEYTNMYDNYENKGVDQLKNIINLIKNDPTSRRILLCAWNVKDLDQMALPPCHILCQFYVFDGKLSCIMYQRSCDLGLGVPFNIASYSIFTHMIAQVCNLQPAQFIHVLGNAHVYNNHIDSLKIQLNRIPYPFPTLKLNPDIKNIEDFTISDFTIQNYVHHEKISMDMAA
UniProt P13922, whole entry R59C/N108S: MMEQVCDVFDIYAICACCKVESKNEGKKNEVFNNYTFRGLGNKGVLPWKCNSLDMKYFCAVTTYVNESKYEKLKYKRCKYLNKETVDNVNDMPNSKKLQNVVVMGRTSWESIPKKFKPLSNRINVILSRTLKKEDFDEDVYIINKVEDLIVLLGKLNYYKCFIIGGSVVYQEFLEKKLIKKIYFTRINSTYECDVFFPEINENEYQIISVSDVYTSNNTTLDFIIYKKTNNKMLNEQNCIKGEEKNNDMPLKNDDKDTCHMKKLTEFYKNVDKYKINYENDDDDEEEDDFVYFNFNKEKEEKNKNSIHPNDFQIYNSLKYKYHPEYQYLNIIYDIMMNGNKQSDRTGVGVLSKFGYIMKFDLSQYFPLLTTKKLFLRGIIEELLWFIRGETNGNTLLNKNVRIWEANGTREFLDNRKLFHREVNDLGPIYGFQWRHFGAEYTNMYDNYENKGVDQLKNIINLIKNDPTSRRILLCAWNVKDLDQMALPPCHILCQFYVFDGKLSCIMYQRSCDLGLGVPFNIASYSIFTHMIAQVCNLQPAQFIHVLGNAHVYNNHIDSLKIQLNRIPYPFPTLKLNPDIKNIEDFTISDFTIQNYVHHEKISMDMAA

Data set [1] deals with P. falciparum V1/S (N51I + C59R + S108 + I164L). Conditions: read-out: IC50 P. falciparum V1/S; in vitro, quadruple mutant strain V1/S; tested form: HCl.
In the next data set the target is wild type (WT) pfDHFR (Plasmodium falciparum, UniProt P13922, N108S/R59C). The data set can be described thus: Inhibition of wild type pfDHFR (Ki). The data set is classed as biochemical. Conditions: read-out: Ki pfDHFR WT, hydrochloride salts, tested form: HCl.
Data set [2] concerns Human dihydrofolate reductase (hDHFR). The data set can be described thus: Inhibition of human dihydrofolate reductase (Ki). The data set is classed as biochemical. The conditions noted are these: Ki hDHFR divided by Ki quadruple mutant pfDHFR; tested form: HCl.
The target of data set [3] is quadruple mutant N51I + C59R + S108N + I164L (QM) pfDHFR (Plasmodium falciparum, UniProt P13922, I164L/N51I). The data set can be described thus: Inhibition of quadruple mutant pfDHFR (Ki). The data set is classed as biochemical. Conditions: read-out: Ki pfDHFR N51I + C59R + S108N + I164L (QM), hydrochloride salts, tested form: HCl.
The next data set concerns Vero cells. The conditions noted are these: read-out: Cytotoxicity against Vero cells (IC50), tested form: HCl.
For data set [4], the system named is P. falciparum TM4/8.2 (wild type). The conditions noted are these: read-out: IC50 P. falciparum TM4/8.2 (WT); tested form: HCl.

For orientation: Ki means a dissociation constant, usually derived from enzyme kinetics or from competition with a known ligand. For the compound `CCc1nc(N)nc(N)c1OCCCc1cn(Cc2cccc(C(=O)O)c2)nn1`, the IC50 in data set [1] was over 25000 nM; in the data set with Vero cells, over 25000 nM; in data set [4] it was 1800 nM. Further, the Ki stood at 0.6 nM on wild type (WT) pfDHFR and 9.71 nM in data set [3]. For the same compound, in data set [2], the Selectivity ratio of Ki hDHFR/Ki QM was determined as 9.73.
